Compound potency records, mixed from different reports. Data source: NIAID ChemDB in PubChem.

All rows: target-level tests; agent: Herpes simplex virus 1; target: Thymidine kinase; read-out: IC50

ICn is the concentration giving n% inhibition. Lines come from different laboratories, so protocols vary. An empty or dashed field is not shown.

SMILES	strain or isolate	result
Cc1cn([C@@H]2O[C@H](CO)[C@@H](O)[C@@H]2F)c(=O)nc1N	F	>200 µM
CCc1cn([C@H]2C[C@H](O)[C@@H](COS(C)(=O)=O)O2)c(=O)[nH]c1=O		8.1 µM
CCCCC(=O)NC[C@H]1O[C@@H](n2cc(I)c(=O)[nH]c2=O)C[C@@H]1O		38 µM
C#Cc1cn([C@@H]2O[C@H](CO)[C@@H](O)[C@@H]2F)c(=O)nc1N	F	>200 µM
CCC(=O)NC[C@H]1O[C@@H](n2cc(I)c(=O)[nH]c2=O)C[C@@H]1O		159 µM
CCc1cn([C@H]2C[C@H](O)[C@@H](CNC(=O)C(C)Oc3ccccc3)O2)c(=O)[nH]c1=O		0.18 µM
Cc1cn(C/C=C/COC(=O)CC(C)(C)C)c(=O)[nH]c1=O		28 µM
CCOC(=O)/C=C/c1cn([C@@H]2O[C@H](CO)[C@@H](O)[C@@H]2F)c(=O)nc1N	F	>200 µM
O=c1[nH]c(=O)n([C@@H]2C[C@@H](O)[C@H](CO)O2)cc1C(F)(F)F		0.5 µM
CCc1cn(C/C=C\COC(c2ccccc2)(c2ccccc2)c2ccccc2)c(=O)[nH]c1=O		20 µM
C#C[C@H]1O[C@@H](n2cc(C)c(=O)[nH]c2=O)C[C@@H]1O	TR7	3 µM
COc1ccc(S(=O)(=O)NC[C@H]2O[C@@H](n3cc(C)c(=O)[nH]c3=O)C[C@@H]2O)cc1		>200 µM
CCc1cn([C@H]2C[C@H](O)[C@@H](COP(=O)(O)OC(C)C)O2)c(=O)[nH]c1=O		208 µM
Cc1cn([C@H]2C[C@H](O)[C@@H](CNS(=O)(=O)c3ccc(Br)cc3)O2)c(=O)[nH]c1=O		171 µM
O=c1[nH]c(=O)n([C@@H]2O[C@H](CO)[C@@H](O)[C@@H]2F)cc1/C=C/Cl	F	<200 µM
CCc1cn([C@H]2C[C@H](O)[C@@H](CNS(=O)(=O)c3ccccc3)O2)c(=O)[nH]c1=O		15.2 µM
Nc1nc(=O)n([C@@H]2O[C@H](CO)[C@@H](O)[C@@H]2F)cc1/C=C/Br	F	>200 µM
CCc1cn([C@H]2C[C@H](O)[C@@H](CNC(=O)c3ccccc3)O2)c(=O)[nH]c1=O		3.1 µM
Cc1cn([C@H]2C[C@H](O)[C@@H](CNS(=O)(=O)c3ccc(NS(=O)(=O)O)cc3)O2)c(=O)[nH]c1=O		>200 µM
O=c1[nH]c(=O)n([C@@H]2O[C@H](CO)[C@@H](O)[C@@H]2F)cc1/C=C/I	F	<200 µM
CCc1cn([C@H]2C[C@H](O)[C@@H](CNC(=O)CCc3ccccc3)O2)c(=O)[nH]c1=O		1.7 µM

A second listing of 3 rows from above:

SMILES | strain or isolate | result
CCc1cn(C/C=C\COC(c2ccccc2)(c2ccccc2)c2ccccc2)c(=O)[nH]c1=O |  | 20 µM
CCc1cn([C@H]2C[C@H](O)[C@@H](CNC(=O)c3ccccc3)O2)c(=O)[nH]c1=O |  | 3.1 µM
Cc1cn([C@H]2C[C@H](O)[C@@H](CNS(=O)(=O)c3ccc(NS(=O)(=O)O)cc3)O2)c(=O)[nH]c1=O |  | >200 µM